A mixed list of measured activities; the numbers were collected in NIAID ChemDB.

Shared fields: growth or infection tests; organism: HIV-1; read by: p24; measure: EC50

An empty or dashed field is not shown. Two numbers with a dash give a range or band. Rows are shuffled and stem from different studies. ECn: concentration that inhibits the pathogen or its effect by n%.

compound | changes | conditions | strain or isolate | cells | value
C=CCOC(=O)CC(O)(CC(=O)O)C(=O)NCCCC[C@H](NC(=O)OCc1ccccc1)C(=O)N[C@@H](CCCCNC(=O)C(O)(CC(=O)O)CC(=O)OCC=C)C(=O)OCc1ccccc1 | - | - | IIIB | C8166 | 10 µM
CC(C)[C@@H]1NC(=O)CCOCCCOc2ccc(cc2)C[C@@H]([C@H](O)CN2C[C@H]3CCCC[C@H]3C[C@H]2C(=O)NC(C)(C)C)NC1=O | - | - | RF | MT-2 | 0.004 µM
C[C@H](NC(=O)[C@@H]1CCCN1C(=O)[C@@H](NC(=O)[C@@H](NC(=O)[C@@H](N)CC(=O)O)[C@@H](C)O)[C@@H](C)O)C(=O)O | - | 7 d | JR-CSF | PBMC (PHA stimulated) + PBMC | >0.1 µM
COc1cc(O)c(CC=C(C)C)c(O)c1C(=O)/C=C/c1ccc(O)cc1 | - | - | IIIB | H9 | <121.8 µM
CCN1c2ncc(CCOc3cccc4c3CNC4=O)cc2C(=O)Nc2c(C)ccnc21 | RT-K103N Y181C | - | - | C8166 | <0.01 µM
O=C(O)c1cn(C2CC2)c2c(OC(F)F)c(N3CCN(c4ccc(Cl)cc4)CC3)c(F)cc2c1=O | - | - | IIIB | MOLT-4 | 0.964 µM
O=C(N[C@@H](CCCCNC(=O)c1cccc(O)c1C(=O)O)C(=O)OCc1ccccc1)OCc1ccccc1 | - | - | IIIB | C8166 | 50 µM
C[Si](O)(O[Si](C)(CCCn1cnc2c(N)ncnc21)c1ccccc1)c1ccccc1 | - | - | IIIB | MT-2 | 16 µM
N[C@@H](Cn1ccc(=O)c(O)c1)C(=O)O | - | - | - | H9 | ~120 µM
O=C(O)CCC(=O)NCCCC[C@H](NC(=O)OCc1ccccc1)C(=O)N[C@@H](CCCCNC(=O)CCC(=O)O)C(=O)OCc1ccccc1 | - | - | IIIB | C8166 | >250 µM
CC(C)=CCOc1cc(NC(=S)c2ccsc2C)ccc1Cl | - | - | 4xAZT(RT-D67N K70R T215Y K219Q) | CEM + CEM-SS | 0.006 µM
CC(C)CN(C[C@@H](O)[C@H](Cc1ccccc1)NC(=O)O[C@@H]1CCOC1)S(=O)(=O)c1cc(Cl)c(Cl)s1 | - | - | IIIB | CEM | <1.001 µM
CCOP(=O)(OCC)OC[C@H]1O[C@@H](n2cc(C)c(=O)[nH]c2=O)C[C@@H]1OC(C)=O | - | - | RF | C8166 | >100 µM
CN1CCn2cc(C(=O)NCc3ccc(F)cc3)c(O)c2C1=O | - | - | - | MT-4 | <20 µM
C=CCOC(=O)N[C@@H](Cc1ccccc1)[C@H](O)CN(CC1CCCC1)S(=O)(=O)c1ccc(F)cc1 | - | - | IIIB | CEM | <0.101 µM
N#Cc1ccccc1C#CC1(C(F)(F)F)OC(=O)Nc2ccc(Cl)cc21 | - | - | IIIB | MT-4 | <0.006 µM
CCN1c2ncc(CCOc3cccc4c3CNC(=O)N4CC(=O)O)cc2C(=O)N(C)c2cccnc21 | - | - | IIIB | C8166 | >0.05 µM
Cc1cn([C@H]2C=C[C@@H](CO)O2)c(=O)[nH]c1=O | - | - | IIIB | PBMC | 0.018 µM
NCCCC[C@H](NC(=O)OCc1ccccc1)C(=O)N[C@@H](CCCCN)C(=O)OCc1ccccc1 | - | - | IIIB | C8166 | 500 µM
CCCCCCCCCCCCCC(=O)OCC/C(SS/C(CCOC(=O)CCCCCCCCCCCCC)=C(\C)N(C=O)Cc1cnc(C)nc1N)=C(/C)N(C=O)Cc1cnc(C)nc1N | - | - | KMT(SI/TT) | PBMC(CXCR4 CCR5) + PBMC | <25 µM
CC(C)CN(C[C@@H](O)[C@H](Cc1ccccc1)NC(=O)OC(C)(C)C)S(=O)(=O)c1cccc(F)c1 | - | - | IIIB | CEM | <1.001 µM
CCO[C@@H]1Cc2cc(C(F)(F)F)ccc2C1N1CCN(C2(C)CCN(C(=O)c3c(C)ncnc3C)CC2)C[C@@H]1C | - | - | 97ZA003 | PBMC | 0.0026 µM
O=C(N[C@@H](Cc1ccccc1)C(=O)NCC[C@@H](CO)NC(=O)[C@H](Cc1ccccc1)NC(=O)OCC1c2ccccc2-c2ccccc21)OCC1c2ccccc2-c2ccccc21 | - | - | IIIB | MOLT-4 | 0.11 µM
CCOC(=O)N[C@@H](Cc1ccccc1)[C@H](O)CN(CC(C)C)S(=O)(=O)c1ccc(F)cc1 | - | - | IIIB | CEM | <1.001 µM
CCCC1(C2CC2)OC(=O)Nc2ccc(Cl)cc21 | - | - | IIIB | MT-4 | <1.5 µM
O=C(N[C@@H](Cc1ccccc1)C(=O)NC[C@@H](CO)NC(=O)[C@H](Cc1ccccc1)NC(=O)OCC1c2ccccc2-c2ccccc21)OCC1c2ccccc2-c2ccccc21 | - | - | IIIB | MOLT-4 | 0.34 µM
Nc1ncnc2c1ncn2COCCOP(=O)([O-])O[C@@H]1[C@H](O)[C@@H](COP(=O)([O-])O[C@@H]2[C@H](O)[C@@H](COP(=O)([O-])O[C@@H]3[C@H](O)[C@@H](CO)O[C@H]3n3cnc4c(N)ncnc43)O[C@H]2n2cnc3c(N)ncnc32)O[C@H]1n1cnc2c(N)ncnc21 | - | - | - | SupT1 + Sup-T1 | >100 µM
CN(C)CC#CC1(C(F)(F)F)OC(=O)Nc2ccc(Cl)cc21 | - | - | IIIB | MT-4 | <0.1 µM
CC(=O)N(C)CCN(C)c1nc(C(=O)NCc2ccc(F)cc2)c(O)c2ncccc12 | - | 10% FBS | - | MT-4 | <0.156 µM
CCCOP(=O)(OCCC)OC[C@H]1O[C@@H](n2cc(C)c(=O)[nH]c2=O)C[C@@H]1OCC | - | - | RF | C8166 | >100 µM
CCN1c2ncc(CCOc3cccc4c3CNC4=O)cc2C(=O)N(C)c2cccnc21 | - | - | IIIB | C8166 | <0.01 µM
NCCC[C@@H](N)CC(=O)NCN | - | - | IIIB | PBL | 7.5 µM
CCN1c2ncc(CCOc3cccc4c3CN(O)C4=O)cc2C(=O)N(C)c2cccnc21 | - | - | IIIB | C8166 | <0.01 µM
NC(=O)[C@H](CCCCNC(=O)CCC(=O)O)NC(=O)[C@H](CCCCNC(=O)CCC(=O)O)NC(=O)[C@H](CCCCNC(=O)CCC(=O)O)NC(=O)c1ccccc1 | - | - | IIIB | C8166 | 100 µM
O=C(N[C@@H](Cc1ccccc1)[C@H](O)CN(CC1CCCC1)S(=O)(=O)c1ccc([N+](=O)[O-])cc1)O[C@@H]1CCOC1 | - | - | IIIB | CEM | <0.101 µM
CCN1c2ncc(CCOc3cccc4c3CNC(=O)N4)cc2C(=O)Nc2c(C)ccnc21 | RT-K103N Y181C | - | - | C8166 | 0.01–0.05 µM
O=C(NC1CC1)c1cn2c(c1O)C(=O)N(Cc1ccc(F)cc1)CC2 | - | - | - | MT-4 | <20 µM
CC1=CC[C@@H]([C@@H](C)[C@H]2CC[C@@]3(C)C4=C(C=C5C=CC(=O)OC(C)(C)[C@@H]5C=C4)CC[C@]23C)OC1=O | - | - | IIIB | H9 | >7.1 µg/mL
CCCc1cc(=O)oc2c3c(c4c(c12)OC(C)(C)CC4)O[C@@H](C)[C@H](C)[C@@H]3O | - | - | ADA | MM + M/M | 0.1 µM
CSCC[C@H](N)C(=O)N[C@@H](CC(C)C)C(=O)N[C@H](Cc1ccccc1)C(=O)N[C@H](C(=O)N[C@H](Cc1ccccc1)C(=O)N1CCC[C@H]1C(=O)O)C(C)C | - | - | IIIB | MT-2 | 17.48 µg/mL
COc1cc([N+](=O)[O-])c(S(=O)(=O)[O-])cc1N=N/C(=N\Nc1cc(S(=O)(=O)[O-])c([N+](=O)[O-])cc1OC)C(=O)Nc1ccccc1 | - | - | 92US657 R5 | PBMC | 30.63 µM
C=C(C)COC(=O)N[C@@H](Cc1ccccc1)[C@H](O)CN(CC(C)C)S(=O)(=O)c1ccc(Cl)c(Cl)c1 | - | - | IIIB | CEM | <1.001 µM
CCCCOP(=O)(OCCCC)OC[C@H]1O[C@@H](n2cc(C)c(=O)[nH]c2=O)C[C@@H]1O | - | - | RF | C8166 | >100 µM
COC1=C(Br)CC2(OC=C1Br)ON=C(C(=O)NCCCOc1c(Br)cc(CCN)cc1Br)[C@@H]2O | - | - | LAV | U1(HIV-1 (LAV)) + U1 | 20–200 µM
CC(=O)Nc1ccc(S(=O)(=O)N(CC(C)C)C[C@@H](O)[C@H](Cc2ccccc2)NC(=O)OC(C)(C)C)cc1 | - | - | IIIB | CEM | <1.001 µM
CCOC(=O)c1cn2c(c1O)C(=O)N(Cc1ccc(F)cc1)CC2 | - | - | - | MT-4 | <20 µM
NC(=O)[C@H](CCCCNC(=O)c1c(O)cccc1C(=O)O)NC(=O)[C@H](CCCCNC(=O)c1cccc(O)c1C(=O)O)NC(=O)[C@H](CCCCNC(=O)c1cccc(O)c1C(=O)O)NC(=O)c1ccccc1 | - | - | IIIB | C8166 | 62 µM
CCNC(=O)c1cn2c(c1O)C(=O)N(Cc1ccc(F)cc1)CC2 | - | - | - | MT-4 | <20 µM
C=C(C)[C@@H]1CC[C@]2(C(=O)NC(C)(C)CN3CCN(CC)CC3)CC[C@]3(C)[C@H](CC[C@@H]4[C@@]5(C)CC[C@H](OC(=O)CC(C)(C)C(=O)O)C(C)(C)[C@@H]5CC[C@]43C)[C@@H]12 | - | 40% human serum | 92HT599 | MT-2 | ≤0.05 µM

For reference, 5 entries again:

compound,changes,conditions,strain or isolate,cells,value
O=C(O)CCC(=O)NCCCC[C@H](NC(=O)OCc1ccccc1)C(=O)N[C@@H](CCCCNC(=O)CCC(=O)O)C(=O)OCc1ccccc1,-,-,IIIB,C8166,>250 µM
C=C(C)COC(=O)N[C@@H](Cc1ccccc1)[C@H](O)CN(CC(C)C)S(=O)(=O)c1ccc(Cl)c(Cl)c1,-,-,IIIB,CEM,<1.001 µM
C[C@H](NC(=O)[C@@H]1CCCN1C(=O)[C@@H](NC(=O)[C@@H](NC(=O)[C@@H](N)CC(=O)O)[C@@H](C)O)[C@@H](C)O)C(=O)O,-,7 d,JR-CSF,PBMC (PHA stimulated) + PBMC,>0.1 µM
CC1=CC[C@@H]([C@@H](C)[C@H]2CC[C@@]3(C)C4=C(C=C5C=CC(=O)OC(C)(C)[C@@H]5C=C4)CC[C@]23C)OC1=O,-,-,IIIB,H9,>7.1 µg/mL
CCNC(=O)c1cn2c(c1O)C(=O)N(Cc1ccc(F)cc1)CC2,-,-,-,MT-4,<20 µM